{"source": "paper PMC3427316", "about": "(PLoS ONE, 2012)", "biological_target": "NA of A/California/7/2009(H1N1) (Influenza A virus (A/California/07/2009(H1N1)), UniProt C3W6G3)", "format": "biochemical, influenza A(H1N1)pdm09 virus", "conditions": "Cal/7/09; mean±SD of 3 independent determinations", "note": "pKi: −log10 of the molar value."}
{"compound": "CCC(CC)O[C@@H]1C=C(C(=O)O)C[C@H](N)[C@H]1NC(C)=O", "note": "[OC, oseltamivir carboxylate]", "values": [{"measurement": "pKi", "result": 9.59}]}
